Some entries repeat one wording, which the source may state once for all of them. Where a SMILES comes first, the peptide text is derived from it. [ ]: non-standard residue; d: D form. ξ: configuration not given here. Oic = O=C(O)[C@@H]1C[C@@H]2CCCC[C@@H]2N1; Oic(3aξ,7aξ) = O=C(O)[C@@H]1CC2CCCCC2N1; Tic = O=C(O)[C@@H]1Cc2ccccc2CN1; βAla = NCCC(=O)O
How the values were obtained:
[1] = tested on: LPS isolated from P. aeruginosa; assay: Far-UV circular dichroism of AMP with LPS SUVs; set-up: species or system Pseudomonas aeruginosa; conditions: 40 mM sodium phosphate pH 6.8, 350 μL LPS stock + 50 μL peptide stock, 298 K, 260-195 nm, LPS background subtracted
[2] = tested on: LPS isolated from K. pneumoniae; assay: Far-UV circular dichroism of AMP with LPS SUVs; set-up: species or system Klebsiella pneumoniae; conditions: 40 mM sodium phosphate pH 6.8, 350 μL LPS stock + 50 μL peptide stock, 298 K, 260-195 nm, LPS background subtracted

Compound | type of CD spectrum [1] | type of CD spectrum [2]
CC(C)C[C@H](NC(=O)[C@@H](N)CCCCN)C(=O)N1Cc2ccccc2C[C@H]1C(=O)N1[C@H](C(=O)N[C@@H](CCCCN)C(=O)N2Cc3ccccc3C[C@H]2C(=O)N2[C@H](C(=O)N[C@@H](Cc3ccccc3)C(=O)N3Cc4ccccc4C[C@H]3C(=O)N3[C@H](C(=O)N[C@@H](CCCCN)C(=O)N4Cc5ccccc5C[C@H]4C(=O)N4[C@H](C(=O)N[C@@H](Cc5ccccc5)C(=O)N5Cc6ccccc6C[C@H]5C(=O)N5[C@H](C(=O)N[C@@H](CCCCN)C(=O)N6Cc7ccccc7C[C@H]6C(=O)N6[C@H](C(=O)N[C@@H](CCCCN)C(=O)N[C@@H](CCCNC(=N)N)C(N)=O)C[C@@H]7CCCC[C@@H]76)C[C@@H]6CCCC[C@@H]65)C[C@@H]5CCCC[C@@H]54)C[C@@H]4CCCC[C@@H]43)C[C@@H]3CCCC[C@@H]32)C[C@@H]2CCCC[C@@H]21 [AMP 22] (H-KL[Tic][Oic]K[Tic][Oic]F[Tic][Oic]K[Tic][Oic]F[Tic][Oic]K[Tic][Oic]KR-NH2) | helical-like features | helical-like features
CC(=O)N[C@@H](CCCCN)C(=O)N[C@@H](CC(C)C)C(=O)N1Cc2ccccc2C[C@H]1C(=O)N1[C@H](C(=O)N[C@@H](CCCCN)C(=O)N2Cc3ccccc3C[C@H]2C(=O)N2[C@H](C(=O)N[C@@H](Cc3ccccc3)C(=O)N3Cc4ccccc4C[C@H]3C(=O)N3[C@H](C(=O)N[C@@H](CCCCN)C(=O)N4Cc5ccccc5C[C@H]4C(=O)N4[C@H](C(=O)N[C@@H](Cc5ccccc5)C(=O)N5Cc6ccccc6C[C@H]5C(=O)N5[C@H](C(=O)N[C@@H](CCCCN)C(=O)N6Cc7ccccc7C[C@H]6C(=O)N6[C@H](C(=O)N[C@@H](CCCCN)C(=O)N[C@@H](CCCCN)C(=O)N[C@@H](CCCCN)C(=O)N[C@@H](CCCCN)C(N)=O)C[C@@H]7CCCC[C@@H]76)C[C@@H]6CCCC[C@@H]65)C[C@@H]5CCCC[C@@H]54)C[C@@H]4CCCC[C@@H]43)C[C@@H]3CCCC[C@@H]32)C[C@@H]2CCCC[C@@H]21 [AMP 70] (Ac-KL[Tic][Oic]K[Tic][Oic]F[Tic][Oic]K[Tic][Oic]F[Tic][Oic]K[Tic][Oic]KKKK-NH2) | helical-like features | helical-like features
CC(C)C[C@H](NC(=O)[C@@H](N)CCCCN)C(=O)N1Cc2ccccc2C[C@H]1C(=O)N1[C@H](C(=O)N[C@@H](CCCCN)C(=O)N2Cc3ccccc3C[C@H]2C(=O)N2[C@H](C(=O)NCC(=O)N[C@@H](Cc3ccccc3)C(=O)N3Cc4ccccc4C[C@H]3C(=O)N3[C@H](C(=O)N[C@@H](CCCCN)C(=O)N4Cc5ccccc5C[C@H]4C(=O)N4[C@H](C(=O)NCC(=O)N[C@@H](Cc5ccccc5)C(=O)N5Cc6ccccc6C[C@H]5C(=O)N5[C@H](C(=O)N[C@@H](CCCCN)C(=O)N6Cc7ccccc7C[C@H]6C(=O)N6[C@H](C(=O)N[C@@H](CCCCN)C(=O)N[C@@H](CCCCN)C(=O)N[C@@H](CCCCN)C(=O)N[C@@H](CCCCN)C(N)=O)C[C@@H]7CCCC[C@@H]76)C[C@@H]6CCCC[C@@H]65)C[C@@H]5CCCC[C@@H]54)C[C@@H]4CCCC[C@@H]43)C[C@@H]3CCCC[C@@H]32)C[C@@H]2CCCC[C@@H]21 [AMP 75] (H-KL[Tic][Oic]K[Tic][Oic]GF[Tic][Oic]K[Tic][Oic]GF[Tic][Oic]K[Tic][Oic]KKKK-NH2) | helical-like features | helical-like features
CC(C)C[C@H](NC(=O)[C@@H](N)CCCCN)C(=O)N1Cc2ccccc2C[C@H]1C(=O)N1C2CCCCC2C[C@H]1C(=O)NCC(=O)N[C@@H](CCCCN)C(=O)N1Cc2ccccc2C[C@H]1C(=O)N1C2CCCCC2C[C@H]1C(=O)NCC(=O)N[C@@H](Cc1ccccc1)C(=O)N1Cc2ccccc2C[C@H]1C(=O)N1C2CCCCC2C[C@H]1C(=O)NCC(=O)N[C@@H](CCCCN)C(=O)N1Cc2ccccc2C[C@H]1C(=O)N1C2CCCCC2C[C@H]1C(=O)NCC(=O)N[C@@H](Cc1ccccc1)C(=O)N1Cc2ccccc2C[C@H]1C(=O)N1C2CCCCC2C[C@H]1C(=O)NCC(=O)N[C@@H](CCCCN)C(=O)N1Cc2ccccc2C[C@H]1C(=O)N1C2CCCCC2C[C@H]1C(=O)N[C@@H](CCCCN)C(=O)N[C@@H](CCCCN)C(=O)N[C@@H](CCCCN)C(=O)N[C@@H](CCCCN)C(N)=O (stereo partly drawn) [AMP 76] (H-KL[Tic][Oic(3aξ,7aξ)]GK[Tic][Oic(3aξ,7aξ)]GF[Tic][Oic(3aξ,7aξ)]GK[Tic][Oic(3aξ,7aξ)]GF[Tic][Oic(3aξ,7aξ)]GK[Tic][Oic(3aξ,7aξ)]KKKK-NH2) | only negative absorptions | only negative absorptions
CC(C)C[C@H](NC(=O)[C@@H](N)CCCCN)C(=O)N1Cc2ccccc2C[C@H]1C(=O)N1[C@H](C(=O)N[C@@H](CCCCN)C(=O)N2Cc3ccccc3C[C@H]2C(=O)N2[C@H](C(=O)N[C@@H](Cc3ccccc3)C(=O)NCC(=O)N3Cc4ccccc4C[C@H]3C(=O)N3[C@H](C(=O)N[C@@H](CCCCN)C(=O)N4Cc5ccccc5C[C@H]4C(=O)N4[C@H](C(=O)N[C@@H](Cc5ccccc5)C(=O)NCC(=O)N5Cc6ccccc6C[C@H]5C(=O)N5[C@H](C(=O)N[C@@H](CCCCN)C(=O)N6Cc7ccccc7C[C@H]6C(=O)N6[C@H](C(=O)N[C@@H](CCCCN)C(=O)N[C@@H](CCCCN)C(=O)N[C@@H](CCCCN)C(=O)N[C@@H](CCCCN)C(N)=O)C[C@@H]7CCCC[C@@H]76)C[C@@H]6CCCC[C@@H]65)C[C@@H]5CCCC[C@@H]54)C[C@@H]4CCCC[C@@H]43)C[C@@H]3CCCC[C@@H]32)C[C@@H]2CCCC[C@@H]21 [AMP 77] (H-KL[Tic][Oic]K[Tic][Oic]FG[Tic][Oic]K[Tic][Oic]FG[Tic][Oic]K[Tic][Oic]KKKK-NH2) | helical-like features | helical-like features
CC(C)C[C@H](NC(=O)[C@@H](N)CCCCN)C(=O)N1Cc2ccccc2C[C@H]1C(=O)N1C2CCCCC2C[C@H]1C(=O)N[C@@H](CCCCN)C(=O)NCC(=O)N1Cc2ccccc2C[C@H]1C(=O)N1C2CCCCC2C[C@H]1C(=O)N[C@@H](Cc1ccccc1)C(=O)N1Cc2ccccc2C[C@H]1C(=O)N1C2CCCCC2C[C@H]1C(=O)N[C@@H](CCCCN)C(=O)NCC(=O)N1Cc2ccccc2C[C@H]1C(=O)N1C2CCCCC2C[C@H]1C(=O)N[C@@H](Cc1ccccc1)C(=O)N1Cc2ccccc2C[C@H]1C(=O)N1C2CCCCC2C[C@H]1C(=O)N[C@@H](CCCCN)C(=O)NCC(=O)N1Cc2ccccc2C[C@H]1C(=O)N1C2CCCCC2C[C@H]1C(=O)N[C@@H](CCCCN)C(=O)N[C@@H](CCCCN)C(=O)N[C@@H](CCCCN)C(=O)N[C@@H](CCCCN)C(N)=O (stereo partly drawn) [AMP 78] (H-KL[Tic][Oic(3aξ,7aξ)]KG[Tic][Oic(3aξ,7aξ)]F[Tic][Oic(3aξ,7aξ)]KG[Tic][Oic(3aξ,7aξ)]F[Tic][Oic(3aξ,7aξ)]KG[Tic][Oic(3aξ,7aξ)]KKKK-NH2) | only negative absorptions | only negative absorptions
CC(C)C[C@H](NC(=O)[C@@H](N)CCCCN)C(=O)N1Cc2ccccc2C[C@H]1C(=O)N1C2CCCCC2C[C@H]1C(=O)N[C@@H](CCCCN)C(=O)NCC(=O)N1Cc2ccccc2C[C@H]1C(=O)N1C2CCCCC2C[C@H]1C(=O)N[C@@H](Cc1ccccc1)C(=O)NCC(=O)N1Cc2ccccc2C[C@H]1C(=O)N1C2CCCCC2C[C@H]1C(=O)N[C@@H](CCCCN)C(=O)NCC(=O)N1Cc2ccccc2C[C@H]1C(=O)N1C2CCCCC2C[C@H]1C(=O)N[C@@H](Cc1ccccc1)C(=O)NCC(=O)N1Cc2ccccc2C[C@H]1C(=O)N1C2CCCCC2C[C@H]1C(=O)N[C@@H](CCCCN)C(=O)NCC(=O)N1Cc2ccccc2C[C@H]1C(=O)N1C2CCCCC2C[C@H]1C(=O)N[C@@H](CCCCN)C(=O)N[C@@H](CCCCN)C(=O)N[C@@H](CCCCN)C(=O)N[C@@H](CCCCN)C(N)=O (stereo partly drawn) [AMP 79] (H-KL[Tic][Oic(3aξ,7aξ)]KG[Tic][Oic(3aξ,7aξ)]FG[Tic][Oic(3aξ,7aξ)]KG[Tic][Oic(3aξ,7aξ)]FG[Tic][Oic(3aξ,7aξ)]KG[Tic][Oic(3aξ,7aξ)]KKKK-NH2) | only negative absorptions | only negative absorptions
CC(C)C[C@H](NC(=O)[C@@H](N)CCCCN)C(=O)N1Cc2ccccc2C[C@H]1C(=O)N1C2CCCCC2C[C@H]1C(=O)NCC(=O)N[C@@H](CCCCN)C(=O)N1Cc2ccccc2C[C@H]1C(=O)N1C2CCCCC2C[C@H]1C(=O)NCCC(=O)N[C@@H](Cc1ccccc1)C(=O)N1Cc2ccccc2C[C@H]1C(=O)N1C2CCCCC2C[C@H]1C(=O)NCC(=O)N[C@@H](CCCCN)C(=O)N1Cc2ccccc2C[C@H]1C(=O)N1C2CCCCC2C[C@H]1C(=O)NCCC(=O)N[C@@H](Cc1ccccc1)C(=O)N1Cc2ccccc2C[C@H]1C(=O)N1C2CCCCC2C[C@H]1C(=O)NCC(=O)N[C@@H](CCCCN)C(=O)N1Cc2ccccc2C[C@H]1C(=O)N1C2CCCCC2C[C@H]1C(=O)N[C@@H](CCCCN)C(=O)N[C@@H](CCCCN)C(=O)N[C@@H](CCCCN)C(=O)N[C@@H](CCCCN)C(N)=O (stereo partly drawn) [AMP 80] (H-KL[Tic][Oic(3aξ,7aξ)]GK[Tic][Oic(3aξ,7aξ)][βAla]F[Tic][Oic(3aξ,7aξ)]GK[Tic][Oic(3aξ,7aξ)][βAla]F[Tic][Oic(3aξ,7aξ)]GK[Tic][Oic(3aξ,7aξ)]KKKK-NH2) | only negative absorptions | only negative absorptions
H2N-KL-Tic-Oic-GK-Tic-Oic-F-Tic-Oic-GK-Tic-Oic-F-Tic-Oic-GK-Tic-Oic-KKKK-CONH2 [AMP 74, synthetic antimicrobial peptide containing six Tic-Oic dipeptide units, residue A Gly] | helical-like features | falls into the latter type

Reference: article PMC4295349, “Synthetic Antimicrobial Peptides Exhibit Two Different Binding Mechanisms to the Lipopolysaccharides Isolated from Pseudomonas aeruginosa and Klebsiella pneumoniae” (International Journal of Medicinal Chemistry, 2014)
